From paper PMC5789848

Target: Tax WT (HTLV-1) (UniProt P03409)
Assay: pull-down
Settings: nonspecific RNA binding mentioned, data not shown; pull-down: BLI-like buffer, 30 C then 4 C, 200 mM NaCl wash; recombinant protein; residues 1-353; protein details: N-terminal GST; label: 3' biotin (BtnTg)

Does “CGUCCAUCUGGUCAUCUAGUGAUAUCAUCG [30-mer ssRNA 3'-biotin (pull-down)]” bind?
Result: binds

For at least one entry, the source does not settle the construct or the ends of the probe. At least one verdict rests on a figure or table, not on a statement of the authors.
